Data taken from ChEMBL document CHEMBL1155233, “Structure mechanism insights and the role of nitric oxide donation guide the development of oxadiazole-2-oxides as therapeutic agents against schistosomiasis” (J Med Chem, 2009).
Calls of active or inactive are those of the source. No cut-off for these calls is given here.

Tests used:
Schistosoma mansoni [1] = assay: Antischistosomal activity against Schistosoma mansoni assessed as parasite killing after 2 hrs; type: functional, organism-based
Method in brief: (§1)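 Cultured ex vivo worms were exposed to 10 μM compound. Worm effects were scored by visual examination at time points over a 72 h time-course.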

Schistosoma mansoni [2] = assay: Antischistosomal activity against Schistosoma mansoni assessed as parasite killing after 4 hrs; type: functional; method in brief: as §1
Schistosoma mansoni [3] = assay: Antischistosomal activity against Schistosoma mansoni assessed as induction of parasite mortality after 16 hrs; type: functional; parameters: concentration or dose not given beside the values; method in brief: as §1
Schistosoma mansoni [4] = assay: Antischistosomal activity against Schistosoma mansoni assessed as induction of parasite mortality after 24 hrs; type: functional; parameters: concentration or dose not given beside the values; method in brief: as §1
Schistosoma mansoni [5] = assay: Antischistosomal activity against Schistosoma mansoni assessed as induction of parasite mortality after 48 hrs; type: functional; parameters: concentration or dose not given beside the values; method in brief: as §1

Compound: N#Cc1c(-c2ccc(-c3no[n+]([O-])c3C#N)cc2)no[n+]1[O-]
- Activity (Schistosoma mansoni [1]): inactive
- Activity (Schistosoma mansoni [2]): inactive
- Activity (Schistosoma mansoni [3]): 55%
- Activity (Schistosoma mansoni [4]): 82%
- Activity (Schistosoma mansoni [5]): 100%

Compound: N#Cc1c(-c2ccc(-c3no[n+]([O-])c3C#N)s2)no[n+]1[O-]
- Activity (Schistosoma mansoni [1]): inactive
- Activity (Schistosoma mansoni [2]): 8%
- Activity (Schistosoma mansoni [3]): 62%
- Activity (Schistosoma mansoni [4]): 82%
- Activity (Schistosoma mansoni [5]): 100%
